Compound potency records, mixed from different reports. Data source: NIAID ChemDB in PubChem.

Shared fields: tests in culture; organism: Mycobacterium tuberculosis

Neighbouring rows are from separate reports. Inhibition is in % at the dose shown (toxicity tests: loss of growth or viability). MIC bound comes from a single tested concentration. An empty or dashed field is not shown. MIC50, MIC90 and the like: level of inhibition, or share of isolates inhibited.

SMILES	cell line	read by	tested at	strain or isolate	endpoint	value
CCOC(=O)C1=C(C)N(c2ccc(F)c(Cl)c2)C(=O)NC1c1ccccc1Cl		resazurin		H37Rv	MIC	>6.25 µg/mL
O=c1[nH]nc2c3cccc4cccc(c5ccc(O)c1c52)c43		BACTEC	12.5 µg/mL	H37Rv	inhibition	100%
NNC(=O)c1cc(C2CCCC2)nc2ccccc12		BACTEC	6.25 µg/mL	H37Ra	inhibition	2%
Cc1c(-c2ccc(Oc3ccc(F)cc3)nc2)[nH]c2ccccc2c1=O		fluorescence	5 µM	H37Rv	inhibition	0%
O=C(NCc1ccccc1)c1cc(C2C3CC4CC(C3)CC2C4)c2ccccc2n1		BACTEC		H37Ra	MIC	3.125 µg/mL
O=c1cc(-c2ccc(Cc3ccc(OC(F)(F)F)cc3)cc2)n(O)c2ccccc12		fluorescence	5 µM	H37Rv	inhibition	0%
CN1c2ccccc2NC(CC(=O)O)C2CC=CN21		BACTEC	12.5 µg/mL	H37Rv	inhibition	0%
CCCCCCCCCCCCCCCCN[C@@H](CC(=O)OCC)[C@H]1O[C@@H]2OC(C)(C)O[C@@H]2[C@H]1OC				H37Rv	MIC	6.25 µg/mL
CN(C)NP(=O)(NN(C)C)c1ccccc1		BACTEC	6.25 µg/mL	H37Rv	inhibition	0%
COc1ccc(NC(=O)c2cc(C3C4CC5CC(C4)CC3C5)c3ccccc3n2)cc1		BACTEC	6.25 µg/mL	H37Ra	inhibition	35%
Cc1c(-c2ccc(Cc3ccccc3)cc2)[nH]c2ccccc2c1=O		fluorescence	5 µM	H37Rv	inhibition	9.5%
O=c1c(I)c(-c2ccccc2)oc2ccccc12				H37Rv	MIC	>12.5 µg/mL
Cc1ccc(NCCNCC(O)CO)c2c(=O)c3ccccc3sc12	VERO	BACTEC		H37Rv	MIC	6.25 µg/mL
CC1=C(C(=O)Nc2ccc(C)cc2)C(c2ccccc2[N+](=O)[O-])NC(=O)N1c1ccc(F)c(Cl)c1		resazurin		H37Rv	MIC	>6.25 µg/mL
CCOC(=O)CCNC(CC(=O)OCC)[C@H]1O[C@@H]2OC(C)(C)O[C@@H]2[C@H]1OC				H37Ra	MIC	>25 µg/mL
Fc1ccc(/C(Cn2ccnc2)=N\OC/C=C/c2ccccc2)cc1				CIP103471	MIC	8 µg/mL
CO[C@H]1/C=C/O[C@@]2(C)Oc3c(C)c(O)c4c(O)c(c5c(c4c3C2=O)NC2(CCN(CC(C)C)CC2)N=5)=NC(=O)/C(C)=C\C=C\[C@H](C)[C@H](O)[C@@H](C)[C@@H](O)[C@@H](C)[C@H](OC(C)=O)[C@@H]1C				S-6M (susceptible)	MIC	0.05 µg/mL
C(=C\c1ccccc1)/CO/N=C(\Cn1ccnc1)c1ccccc1				CIP103471	MIC	8 µg/mL
CC1=C(C(=O)Nc2ccc(C)cc2)C(c2ccc(F)cc2)NC(=O)N1c1ccc(F)c(Cl)c1		resazurin		H37Rv	MIC	>6.25 µg/mL
COc1ccc(/C=C/C(=O)c2cc(C(=O)O)ccc2O)cc1				H37Rv	MIC	>12.5 µg/mL
CC[C@H]1OC(=O)[C@H](C)[C@@H](O[C@H]2C[C@@](C)(OC)[C@@H](O)[C@H](C)O2)[C@H](C)[C@@H](O[C@@H]2O[C@H](C)C[C@H](N(C)C)[C@H]2O)[C@](C)(OC)C[C@@H](C)C(=O)[C@H](C)[C@@H](O)[C@]1(C)O				S-2M (susceptible)	MIC	>8 µg/mL
CC(=O)OC[C@]12[C@H](OC(C)=O)C(=O)[C@@H]3[C@@H](OC(C)=O)[C@@]14O[C@@]3(C)COC(=O)c1cccnc1[C@@H](C)[C@@H](C)C(=O)O[C@@H]([C@H](OC(C)=O)[C@@H]2OC(C)=O)[C@]4(C)O		BACTEC		H37Rv	MIC bound	>12.5 µg/mL
CO[C@H]1/C=C/O[C@@]2(C)Oc3c(C)c(O)c4c(O)c(c(/C=N/N5CCN(C)CC5)c(O)c4c3C2=O)NC(=O)/C(C)=C\C=C\[C@H](C)[C@H](O)[C@@H](C)[C@@H](O)[C@@H](C)[C@H](OC(C)=O)[C@@H]1C				Clinical isolate 2	MIC	1 µg/mL
O=C1OCCOCCOCCOCCOC(=O)c2cccc1n2		BACTEC		H37Rv	MIC bound	>12.5 µg/mL
CC1=C(C(=O)Nc2ccc(C)cc2)C(c2cccc(Cl)c2)NC(=O)N1c1ccc(F)c(Cl)c1		resazurin		H37Rv	MIC	>6.25 µg/mL
NNC(=O)c1ccnc2ccccc12		BACTEC	6.25 µg/mL	H37Ra	inhibition	0%
CO[C@H]1/C=C/O[C@@]2(C)Oc3c(C)c(O)c4c(O)c(c(/C=N/N5CCN(C)CC5)c(O)c4c3C2=O)NC(=O)/C(C)=C\C=C\[C@H](C)[C@H](O)[C@@H](C)[C@@H](O)[C@@H](C)[C@H](OC(C)=O)[C@@H]1C				H37Rv	MBC	>160 µg/mL
C[C@@H]([C@H](NC(=O)[C@H](CC1CCCCC1)NC(=O)N[C@@H](Cc1c[nH]c2ccccc12)C(=O)OCc1ccccc1)C(=O)NC[C@H]1C[C@@H](O)[C@H](n2ccc(=O)[nH]c2=O)O1)N(C)C(=O)CN		resazurin / fluorescence		H37Rv	MIC99	0.166 µM
CCCCCNC(=O)c1cc(C2C3CC4CC(C3)CC2C4)c2ccccc2n1		BACTEC	6.25 µg/mL	H37Ra	inhibition	14%
CCCCCCNC(=O)[C@H](Cc1c[nH]c2ccccc12)NC(=O)N[C@@H](Cc1ccc2ccccc2c1)C(=O)N[C@H](C(=O)NC[C@H]1C[C@@H](O)[C@H](n2ccc(=O)[nH]c2=O)O1)[C@H](C)N(C)C(=O)CN		resazurin / fluorescence		H37Rv	MIC50	0.229 µM
CCOC(=O)CCCNC(CC(=O)OCC)[C@H]1O[C@@H]2OC(C)(C)O[C@@H]2[C@H]1OCc1ccccc1				H37Rv	MIC	50 µg/mL
COc1ccc2c(=O)c(C)c(-c3ccc(N4CCCCC4)cc3)[nH]c2c1		fluorescence	5 µM	H37Rv	inhibition	100%
CO/N=C(\C(=O)N[C@@H]1C(=O)N2C(C(=O)O)=C(CSc3nc(=O)c(=O)[nH]n3C)CS[C@H]12)c1csc(N)n1				9 strains (MDR)	MIC50	128 µg/mL
CCCCCCCCCCCCCCCCNC(CC(=O)O)[C@H]1O[C@@H]2OC(C)(C)O[C@@H]2[C@H]1OC				H37Rv	MIC	100 µg/mL
CCCCCCNC(=O)c1cc(C2C3CC4CC(C3)CC2C4)c2ccccc2n1		BACTEC		H37Ra	MIC	>6.25 µg/mL
COc1ccc(/C=C/C(=O)c2cc(Br)ccc2O)cc1				H37Rv	MIC	>12.5 µg/mL
CCCCCCCCCCCCCCCCNC(CC(=O)OCC)[C@H]1O[C@@H]2OC(C)(C)O[C@@H]2[C@H]1OCc1ccccc1				H37Rv	MIC	50 µg/mL
O=C(/C=C/c1cccnc1)c1ccc(F)cc1				H37Rv	MIC	48.3 µg/mL
Cn1c(=O)c2c(ncn2C2C(=O)NNC2=O)n(C)c1=O		BACTEC		H37Rv	MIC bound	>12.5 µg/mL
COc1cc2oc(=O)cc(C[C@H](NC(=O)N[C@@H](Cc3c[nH]c4ccccc34)C(=O)OCc3ccccc3)C(=O)N[C@H](C(=O)NC[C@H]3C[C@@H](O)[C@H](n4ccc(=O)[nH]c4=O)O3)[C@H](C)N(C)C(=O)CN)c2cc1OC		resazurin / fluorescence		H37Rv	MIC99	0.312 µM
O=[N+]([O-])c1ccc(-n2cnc([N+](=O)[O-])c2)cc1				H37Rv	MIC	>6.25 µg/mL
O=C(O)c1ccc2oc(-c3ccccc3)cc(=O)c2c1			12.5 µg/mL	H37Rv	inhibition	0%
COc1ccc(-n2cc([N+](=O)[O-])nc2C)cc1				H37Rv	MIC	>6.25 µg/mL
CCOC(=O)CCNC(CC(=O)OCC)[C@H]1O[C@@H]2OC(C)(C)O[C@@H]2[C@H]1OCc1ccccc1				H37Rv	MIC	50 µg/mL
O=C(c1ccc(Cl)cc1)c1cnc2nc(-c3ccccc3)c(-c3ccccc3)nn12		BACTEC		H37Rv	MIC bound	≤12.5 µg/mL
C[C@@H]([C@H](NC(=O)[C@H](Cc1ccc2ccccc2c1)NC(=O)N[C@@H](Cc1c[nH]c2ccccc12)C(=O)NCc1ccccc1)C(=O)NC[C@H]1C[C@@H](O)[C@H](n2ccc(=O)[nH]c2=O)O1)N(C)C(=O)CN		resazurin / fluorescence		H37Rv	MIC50	0.099 µM
CCCCc1[nH]ccc2c(C)c3nc4ccccc4c3cc12		resazurin	6.25 µg/mL	H37Rv	inhibition	99%
COc1ccc(C2NC(=O)N(c3ccc(F)c(Cl)c3)C(C)=C2C(=O)Nc2ccc(C)cc2)cc1OC		resazurin		H37Rv	MIC	>6.25 µg/mL
CCN(CC)C(=O)c1cc(C2C3CC4CC(C3)CC2C4)c2ccccc2n1		BACTEC	6.25 µg/mL	H37Ra	inhibition	2%
Cc1nc([N+](=O)[O-])cn1-c1ccc(Br)cc1			6.25 µg/mL	H37Rv	inhibition	85%
Fc1ccc(/C(Cn2ccnc2)=N/OCc2cccc3ccccc23)cc1				CIP103471	MIC	8 µg/mL
O=C(NNC(=O)c1ccc2ccccc2c1)c1ccc(Br)cc1		BACTEC	12.5 µg/mL	H37Rv	inhibition	0%
O=c1c(O)c(-c2ccccc2)oc2ccc(I)cc12				H37Rv	MIC	>12.5 µg/mL
CCN(CCO)CCNc1ccc(CO)c2sc3cc(Cl)ccc3c(=O)c12		BACTEC		H37Rv	MIC bound	≤12.5 µg/mL
CCCCCCNC(=O)[C@H](Cc1c[nH]c2ccccc12)NC(=O)N[C@@H](CC1CCCCC1)C(=O)N[C@H](C(=O)NC[C@H]1C[C@@H](O)[C@H](n2ccc(=O)[nH]c2=O)O1)[C@H](C)N(C)C(=O)CN		resazurin / fluorescence		H37Rv	MIC50	0.115 µM
Clc1ccc(/C(Cn2ccnc2)=N/OCc2cccc3ccccc23)cc1				CIP103471	MIC	8 µg/mL
COc1c2c(cc3c1C1Oc4c(ccc(O)c4CC=C(C)C)C1CO3)OC(C)(C)C=C2		BACTEC	12.5 µg/mL	H37Rv	inhibition	98%
NNC(=O)c1cnc2ccccc2c1		BACTEC	6.25 µg/mL	H37Ra	inhibition	0%
COc1cccc(N=Nc2c(-c3ccccc3)nn(C(=S)S)c2C)c1		BACTEC		H37Rv	MIC	≥12.5 µg/mL
Nc1ccc(C(=O)O)c(O)c1				Clinical isolate 8	MIC	5 µg/mL
C=C1CCCC2[C@@]1(C)CC[C@H](C)[C@@]2(C)Cc1cc(O)ccc1O		BACTEC	12.5 µg/mL	H37Rv	inhibition	18%
Cc1c(-c2ccc(Cc3ccc(F)cc3)cc2)[nH]c2ccccc2c1=O		fluorescence	5 µM	H37Rv	inhibition	65.3%
O=C(Nc1ccccc1-c1n[nH]c(=S)[nH]c1=O)C(F)(F)F		BACTEC		H37Rv	MIC bound	>12.5 µg/mL
CC1(C)S[C@@H]2[C@H](NC(=O)C(C(=O)O)c3ccccc3)C(=O)N2[C@H]1C(=O)O				9 strains (MDR)	MIC50	>256 µg/mL
CCCCCCCCCCCCOC(=O)[C@H](Cc1c[nH]c2ccccc12)NC(=O)N[C@@H](Cc1ccc2ccccc2c1)C(=O)N[C@H](C(=O)NC[C@H]1C[C@@H](O)[C@H](n2ccc(=O)[nH]c2=O)O1)[C@H](C)N(C)C(=O)CN		resazurin / fluorescence		H37Rv	MIC99	0.3 µM
O=NN(CC(=O)N/N=C/C=C/c1ccccc1)CC(=O)N/N=C/C=C/c1ccccc1		BACTEC	12.5 µg/mL	H37Rv	inhibition	14%
Clc1ccc(/C(Cn2ccnc2)=N\OCc2ccccc2)c(Cl)c1				CIP103471	MIC	8 µg/mL
NNC(=O)C(=O)NNC1CCCCC1		BACTEC	12.5 µg/mL	H37Rv	inhibition	4%
CCOC(=O)C1=C(C)N(c2ccc(F)c(Cl)c2)C(=O)NC1c1ccccc1		resazurin		H37Rv	MIC	>6.25 µg/mL
O=c1c(Br)c(-c2ccccc2)oc2ccccc12			12.5 µg/mL	H37Rv	inhibition	0%
Cc1ccc(C(=O)OC[C@H]2CC[C@@H](n3cc(N(C)C4CCCCC4)c(=O)[nH]c3=O)O2)cc1		resazurin	6.25 µg/mL	H37Rv	inhibition	-11%
COc1ccc(/C=C/C(=O)c2c(O)cc(OC)cc2OC)cc1				H37Rv	MIC	>12.5 µg/mL
COc1ccc(C(C)c2cc(N=NC(N)=O)c(OC)cc2O)cc1		BACTEC		H37Rv	MIC bound	>12.5 µg/mL
CCCCCCCCCCCCCCCCN[C@H](CC(=O)OCC)[C@H]1O[C@@H]2OC(C)(C)O[C@@H]2[C@H]1OC				H37Ra	MIC	>100 µg/mL
C/C1=C\[C@H](C)C[C@H](C)OC(=O)C[C@H](c2ccc(O)cc2)NC(=O)[C@@H](Cc2c(Br)[nH]c3ccccc23)N(C)C(=O)[C@H](C)NC(=O)[C@H](C)C1		BACTEC		H37Rv	MIC bound	>12.5 µg/mL
NNC(=O)c1ccncc1				Clinical isolate 6	MIC	2 µg/mL

The last 10 rows once more:

SMILES	cell line	read by	tested at	strain or isolate	endpoint	value
Clc1ccc(/C(Cn2ccnc2)=N\OCc2ccccc2)c(Cl)c1				CIP103471	MIC	8 µg/mL
NNC(=O)C(=O)NNC1CCCCC1		BACTEC	12.5 µg/mL	H37Rv	inhibition	4%
CCOC(=O)C1=C(C)N(c2ccc(F)c(Cl)c2)C(=O)NC1c1ccccc1		resazurin		H37Rv	MIC	>6.25 µg/mL
O=c1c(Br)c(-c2ccccc2)oc2ccccc12			12.5 µg/mL	H37Rv	inhibition	0%
Cc1ccc(C(=O)OC[C@H]2CC[C@@H](n3cc(N(C)C4CCCCC4)c(=O)[nH]c3=O)O2)cc1		resazurin	6.25 µg/mL	H37Rv	inhibition	-11%
COc1ccc(/C=C/C(=O)c2c(O)cc(OC)cc2OC)cc1				H37Rv	MIC	>12.5 µg/mL
COc1ccc(C(C)c2cc(N=NC(N)=O)c(OC)cc2O)cc1		BACTEC		H37Rv	MIC bound	>12.5 µg/mL
CCCCCCCCCCCCCCCCN[C@H](CC(=O)OCC)[C@H]1O[C@@H]2OC(C)(C)O[C@@H]2[C@H]1OC				H37Ra	MIC	>100 µg/mL
C/C1=C\[C@H](C)C[C@H](C)OC(=O)C[C@H](c2ccc(O)cc2)NC(=O)[C@@H](Cc2c(Br)[nH]c3ccccc23)N(C)C(=O)[C@H](C)NC(=O)[C@H](C)C1		BACTEC		H37Rv	MIC bound	>12.5 µg/mL
NNC(=O)c1ccncc1				Clinical isolate 6	MIC	2 µg/mL